Measured values taken from publication PMC3961230, “Theoretical and Experimental Studies of New Modified Isoflavonoids as Potential Inhibitors of Topoisomerase I from Plasmodium falciparum” (PLoS ONE, 2014).

What was measured:
[1] = system: P. falciparum CQ-resistant (W2 clone); assay: anti-HRPII test, P. falciparum blood parasites, CQ-resistant W2 clone; type: cell-based, Plasmodium falciparum; settings: selectivity index = ratio between toxicity (BGM) and activity (W2); below 10 indicative of toxicity
Text: (§1) A CQ-resistant and mefloquine-sensitive P. falciparum, clone W2 [27] and a CQ-sensitive strain 3D7, were cultivated as described, in human erythrocytes (A^+), in complete medium (RPMI 1640 supplemented with 10% human sera blood group A^+) and tests followed a protocol slightly modified as follows. Human erythrocytes (A^+) and serum blood group A^+ were kindly donated by Center of Hemotherapy and Hemathology of Minas Gerais (HEMOMINAS - http://www.hemominas.mg.gov.br), under the mutual cooperation term number 18/09.
(§2) The ring-stage parasites sorbitol-synchronized were adjusted for parasitemia and hematocrit, according to the specifications for the test, then distributed in 96-well microtiter plates (Corning, Santa Clara, CA, EUA), previously prepared and containing the diluted compounds in dimethyl sulfoxide (DMSO) (0.02%) aqueous stock solution, in triplicates for each dose. CQ, the standard antimalarial, was tested in parallel each time. The drug activity was determined in relation to parasite cultures in complete medium and no drugs, as described. Parasite growth was measured through the anti-HRPII test in cultures adjusted to 1.5% hematocrit and 0.05% parasitemia, with monoclonal antibodies (MPFM-55A and MPFG-55P) commercially acquired (ICLLAB®, USA) and the TMB chromogen (3,3′,5,5′-Tetramethylbenzidine) from KPL (Gaithersburg, MD, EUA). The reaction was stopped with […] of 1 M sulfuric acid, absorbance read at 450 nm in a spectrophotometer (SpectraMax340PC384, Molecular Devices). Sigmoid dose-response curves were generated with curve-fitting software (Microcal Origin Software 5.0, Inc.), used to determine the 50% inhibitory concentration of the parasite growth (IC50), and activity calculated by comparing growth in drug-exposed cultures and the drug-free control cultures.

[2] = system: P. falciparum CQ-sensitive (3D7 strain); assay: anti-HRPII test, P. falciparum blood parasites, CQ-sensitive 3D7 strain; type: cell-based, Plasmodium falciparum; settings: selectivity index = ratio between toxicity (BGM) and activity (3D7); below 10 indicative of toxicity
Text: as §1, §2

In the case of `O=C1C2=C(C(=O)c3ccccc31)[C@H]1Oc3ccccc3[C@H]1CO2` (relative stereo) [LQB118], the “SI, W2” value [1] is reported as 23 and the “SI, 3D7” value [2] is reported as 24.

For `Cc1ccc(S(=O)(=O)N2c3ccccc3[C@H]3COC4=C(C(=O)c5ccccc5C4=O)[C@H]32)cc1` (relative stereo) [LQB192], the “SI, W2” value [1] was 24 and the “SI, 3D7” value [2] was 18.

In the case of `COc1ccc2c(c1)O[C@@H]1C3=C(OC[C@H]21)C(=O)c1ccccc1C3=O` (relative stereo) [LQB216], the “SI, W2” value [1] is reported as 60 and the “SI, 3D7” value [2] is reported as 115.

In the case of `COC(=O)c1ccc2c(c1)[C@H]1COC3=C(C(=O)c4ccccc4C3=O)[C@H]1O2` (relative stereo) [LQB221], the “SI, W2” value [1] is reported as 8 and the “SI, 3D7” value [2] is reported as 20.

In the case of `Cc1ccc(S(=O)(=O)N2c3ccccc3[C@H]3CCc4ccccc4[C@H]32)cc1` (relative stereo) [LQB223], the “SI, 3D7” value [2] is reported as 128.
